Experimental data taken from patent publication US20080318326A1 (priority 2005, published 2008).

What was measured:
[1] = system: Na+ ion channels (voltage gated sodium ion channels); assay: Sodium ion channel currents in filter supported bilayer lipid membrane; assay type: biochemical; conditions: channels with veratridine, FIG. 7
[2] = system: sodium ion channels; assay: Sodium ion channel currents in bilayer reformed on preloaded support matrix stored 80 days; conditions: PTFE matrix preloaded 80 days earlier; before application approximately 5 pA
[3] = system: sodium ion channel proteins; assay: Sodium ion channel currents in bilayer on preloaded nylon support matrix; assay type: biochemical; conditions: nylon support matrix preloaded with sodium channel proteoliposomes; FIGS. 11a-11d

Compound: NC1=N[C@H](O)[C@H]2[C@H]3O[C@]4(O)O[C@@H]([C@@H](O)[C@@]2(N1)[C@@H]4O)[C@]3(O)CO
- effect on sodium channel current ([1]; 15 minutes after application of 200 μmolar): decreased to the level measured for the blank membrane
- effect on sodium channel current ([1]; shortly after application of 200 μmolar): reduction in current
- individual current transitions following application [2]: approximately 2 pA
- current measured after application [3]: less current observed
